Results taken from paper PMC9181312.

Legend:
[1] = target: Omi-20; assay: SPR; conditions: domain or fragment
[2] = target: Omi-12; assay: SPR; conditions: domain or fragment

His-tagged SARS-CoV-2 Omicron BA.4/5 RBD (from UniProt P0DTC2 333-526)
Kd [1]: 7.2 nM
Kd [2]: 126 nM
